In article PMC9296231:

Tests used:
Conditions in all cases: bispecific antibody
[1] = target: SARS2 S trimer Omicron BA.1 (SARS-CoV-2) (UniProt P0DTC2); test: ELISA
[2] = target: SARS2 RBD Omicron BA.1 (SARS-CoV-2) (UniProt P0DTC2); test: ELISA
[3] = target: SARS2 S trimer Omicron BA.1 (SARS-CoV-2) (UniProt P0DTC2); test: BLI
[4] = target: SARS2 RBD Omicron BA.1 (SARS-CoV-2) (UniProt P0DTC2); test: BLI

## F6-ab8-Fc (from UniProt P01857)
[1]
  EC50: 36.9 nM
[2]
  EC50: 19.1 nM
[3]
  Kd: 21 nM
[4]
  Kd: 38.7 nM
